Measured values from several laboratories, pooled; numbers as filed in NIAID ChemDB.

All rows: whole-cell or culture tests; species: Candida albicans; read-out: EC50

Blank or dashed fields: not listed here. Two numbers with a dash give a range or band. Conditions beyond the fields shown may differ between rows. ECn: concentration that inhibits the pathogen or its effect by n%.

compound | strain | read by | conditions | result
O=C/C=C/c1ccc(O)cc1 | KCTC 1940 | - | - | 60 µM
N#Cc1ccc2[nH+]c3c4ccccc4n(CCCCCC4CCCCC4)c3cc2c1 | ATCC 90028 | - | - | >50 µg/mL
CC1CCc2cc(F)cc3c(=O)c(C(=O)O)cn1c23 | ATCC 10231 | - | - | >100 µM
O=[N+]([O-])c1ccc(Sc2c(S(=O)c3ccccc3)c(O)c3ccccc3c2O)cc1 | - | - | - | >0.2 µg/mL
CCCCCCCCCC(=O)[C@@H](C)C(=O)N[C@@H](CC(C)C)C(=O)N[C@H](C)C(=O)N1CCC[C@H]1C(=O)N[C@H](C(=O)N[C@H]1CSCCNC1=O)[C@@H](C)CC | Day185 | broth dilution | - | 9.1 µM
C[C@@H]1CCC2(OC1)OC1CC3C4C[C@H](OC5O[C@@H](CO)[C@H](O)[C@@H](O)[C@@H]5O)[C@H]5C[C@@H](OC6O[C@H](CO)[C@@H](O)[C@H](O)[C@H]6O)CC[C@]5(C)C4CC[C@]3(C)C1[C@@H]2C | ATCC 90028 | - | - | 10 µg/mL
O/N=C/c1cccc[n+]1Cc1ccc(Br)s1.[Cl-] | - | broth dilution | - | >20 µg/mL
Cc1ncc(-c2c[nH]c3ccccc23)o1 | - | resazurin | - | >50 µg/mL
C=C(CCC=C(C)C)[C@@H]1CC[C@@]2(C)O[C@H]2C1 | ATCC 90028 | - | - | >50 µg/mL
Cc1c(C(=O)N(CCO)CCO)cc(-c2ccc([N+](=O)[O-])cc2)n1-c1ccc(Cl)cc1 | 20 strains | - | - | >200 µg/mL
O/N=C/c1ccc[n+](Cc2cc(C[n+]3cccc(/C=N/O)c3)on2)c1.[Br-].[Br-] | - | broth dilution | - | >20 µg/mL
NC1C2CC3CC(C2)CC1C3 | - | - | biofilm | 5 µM
Nc1[nH]c(=O)ncc1F | 5208 strains | - | - | <0.25 µg/mL
C[C@H]1[C@H](O)[C@@H](C)/C=C/C=C/C=C/C=C/C=C/C=C/C=C/[C@H](O[C@@H]2O[C@H](C)[C@@H](O)[C@H](N)[C@@H]2O)C[C@@H]2O[C@](O)(C[C@@H](O)C[C@@H](O)CC[C@H](O)[C@@H](O)C[C@@H](O)CC(=O)O[C@H]1C)C[C@H](O)[C@H]2C(=O)O | - | resazurin | - | 0.08 µg/mL
Cc1ccc(Sc2c(S(=O)c3ccccc3)c(O)c3ccccc3c2O)cc1 | - | - | - | >0.2 µg/mL
COc1cc(NC(C)CCCNC(=O)[C@H](CCCN)NC(=O)[C@@H](N)CCCN)c2ncccc2c1 | - | broth dilution | - | >20 µg/mL
O=C1C(Nc2ccc(Cl)cc2)=C(S(=O)c2ccccc2)C(=O)c2ccccc21 | - | - | - | >0.2 µg/mL
COc1cc(NC(C)CCCNC(=O)[C@@H](CCCN=C(N)N)NC(=O)[C@H](N)CCCN=C(N)N)c2nc(C(C)(C)C)ccc2c1 | - | broth dilution | - | >20 µg/mL
COc1cc(OC)c2c(c1)OC(c1ccccc1)C/C2=N\O | - | - | - | >50 µg/mL
CCCCCCn1c(-c2ccc([N+](=O)[O-])cc2)cc(C(=O)N2CCN(C)CC2)c1C | 20 strains | - | - | >200 µg/mL
CC(C)CC(C(=O)O)N1C(=O)C(C)SC1c1ccccc1 | - | broth dilution | - | 78.16 µM
c1ccc2c(c1)cc1[nH]c3ccccc3c1[n+]2CCCCCC1CCCCC1 | ATCC 90028 | - | - | <1.3 µg/mL
O=C(O)C(Cc1ccccc1)N1C(=O)CSC1c1ccccn1 | - | broth dilution | - | 80.64 µM
CCCCCCCCCC(=O)[C@H](C)C(=O)N[C@@H](CC(C)C)C(=O)N[C@H](C)C(=O)N1CCC[C@H]1C(=O)N[C@H](C(=O)N[C@H]1CSCCNC1=O)C(C)C | Day185 | broth dilution | - | >200 µM
CC(C)(C)C1CCC(CN2C3=NC[C@@H](CC4CCCCC4)N3C[C@@H]2CC2CCCCC2)CC1 | ATCC 10231 | - | - | 2.3 µg/mL
Cc1c(C(=O)N(CCO)CCO)cc(-c2ccc([N+](=O)[O-])cc2)n1Cc1ccc(Cl)cc1 | 20 strains | - | - | >200 µg/mL
C[C@H]1[C@H](O)[C@@H](C)/C=C/C=C/C=C/C=C/C=C/C=C/C=C/[C@H](O[C@@H]2O[C@H](C)[C@@H](O)[C@H](N)[C@@H]2O)C[C@@H]2O[C@](O)(C[C@@H](O)C[C@@H](O)CC[C@H](O)[C@@H](O)C[C@@H](O)CC(=O)O[C@H]1C)C[C@H](O)[C@H]2C(=O)O | 32 | broth dilution | - | 2 µM
S=C(S)n1nnc2ccccc21 | Clinical isolate | broth dilution / absorbance | 48 h | >50 µg/mL
CC(C(=O)O)N1C(=O)CSC1c1ccccc1 | - | broth dilution | - | 78.12 µM
c1ccc(CCCCC[n+]2c3ccccc3cc3[nH]c4ccccc4c32)cc1 | ATCC 90028 | - | - | 80 µg/mL
C[n+]1c2cccc(Cl)c2cc2sc3ccccc3c21 | ATCC 90028 | resazurin | - | >20 µg/mL
CCN1C2=NC[C@@H](CC3CCCCC3)N2C[C@@H]1Cc1ccccc1 | ATCC 10231 | - | - | >64 µg/mL
COc1c(C)c(C)c2[nH]c3ccccc3c2c1OC | - | resazurin | - | >50 µg/mL
C1CCC(C[C@H]2CN3C(=NC[C@H]3C3CCCCC3)N2CCC23CC4CC(CC(C4)C2)C3)CC1 | ATCC 10231 | - | - | 2.4 µg/mL
C/C=C/C(=O)O[C@@H]1[C@@H](C)COC(=O)C2OC2=CC[C@@H]1O | - | absorbance | - | 2 µg/mL
CC(C)=CCC/C(C)=C/C(=O)O | - | - | - | >100 µg/mL
O=C(O)C(Cc1ccccc1)N1C(=O)CSC1c1ccc(Cl)cc1 | - | broth dilution | - | 80.64 µM
CC[C@H](C)/C=C(C)/C=C/C1=CC2=CC3=C(C(C)=O)C(=O)O[C@@]3(C)C(=O)C2=CO1 | - | - | - | 0.6 µg/mL
NC(=O)c1cc[n+](CCC[n+]2cccc(/C=N/O)c2)cc1.[Br-].[Br-] | - | broth dilution | - | >20 µg/mL
c1ccc(CCCCCn2c3ccccc3c3nc4ccccc4cc32)cc1 | ATCC 90028 | - | - | 18 µg/mL
CC(=O)O[C@H]1C[C@@]2(C)[C@@H](C[C@@H](O)[C@H]3[C@@]4(C)CC[C@@H](O)[C@@H](C)[C@@H]4CC[C@@]32C)/C1=C(\CCC=C(C)C)C(=O)O | - | agar diffusion / agar | - | >100 µg/mL
CCCCCOc1ccc(-c2cc(-c3ccc(C(=O)N[C@H]4C[C@@H](O)[C@@H](O)NC(=O)[C@@H]5[C@@H](O)[C@@H](C)CN5C(=O)[C@H]([C@H](O)CC(N)=O)NC(=O)[C@H]([C@H](O)[C@@H](O)c5ccc(O)c(OS(=O)(=O)O)c5)NC(=O)[C@@H]5C[C@@H](O)CN5C(=O)[C@H]([C@@H](C)O)NC4=O)cc3)no2)cc1 | CAF2 | broth dilution | - | 0.016 µg/mL
COc1cc(NC(C)CCCNC(=O)[C@H](CCCCN)NC(=O)[C@@H](N)CCCCN)c2ncccc2c1 | - | broth dilution | - | >20 µg/mL
Cn1c2ccccc2c2c1cc1ccccc1[n+]2C | ATCC 90028 | - | - | 3.1 µg/mL
COc1cc(OC)c2c(=O)cc(-c3ccccc3)oc2c1 | - | - | - | >50 µg/mL
c1ccc(-c2ccc(C(c3cccc4ccccc34)n3ccnc3)cc2)cc1 | 23 strains | - | - | >256 µg/mL
Cc1ccc(-c2cn(-c3ccc(F)cc3)c(C)c2C(=O)O)cc1 | 40 strains | - | - | <73.33 µg/mL
C[C@H]1[C@H](O)[C@@H](C)/C=C/C=C/C=C/C=C/C=C/C=C/C=C/[C@H](O[C@@H]2O[C@H](C)[C@@H](O)[C@H](N)[C@@H]2O)C[C@@H]2O[C@](O)(C[C@@H](O)C[C@@H](O)CC[C@H](O)[C@@H](O)C[C@@H](O)CC(=O)O[C@H]1C)C[C@H](O)[C@H]2C(=O)O | - | - | - | 0.01–0.02 µg/mL
COc1ccc(NC2=C(S(=O)c3ccccc3)C(=O)c3ccccc3C2=O)cc1 | - | - | - | >0.2 µg/mL
COc1cc(NC(C)CCCNC(=O)[C@@H](CCCN)NC(=O)[C@H](N)CCCN)c2nc(C(C)(C)C)ccc2c1 | - | broth dilution | - | >20 µg/mL
Cn1c2ccccc2c2nc3ccc(Br)cc3cc21 | ATCC 90028 | - | - | 43 µg/mL
CC(C)[C@@H]1CC=CC2C3[C@](C)(O)[C@@H](O)C[C@H](Br)[C@@]3(C)CC[C@@]21CBr | ATCC 10231 | - | - | >100 µM
COc1c(O)c2c(=O)cc(OC)c3c4c(OC)cc(=O)c5c(O)c(OC)c6c(c(c1CC(C)(O)C6C(C)=O)c23)c54 | - | - | - | 0.65 µg/mL
Cn1c2ccccc2c2nc3ccccc3cc21 | ATCC 90028 | - | - | 125 µg/mL
O=C1C(Sc2ccc(Br)cc2)=C(Sc2ccc(Br)cc2)C(=O)c2ccccc21 | - | - | - | >0.2 µg/mL
Cc1c(C(=O)O)c(-c2ccc(Br)cc2)cn1-c1ccc(F)cc1 | 40 strains | - | - | >78.57 µg/mL
C[n+]1c2c(Cl)cccc2cc2sc3ccccc3c21 | ATCC 90028 | resazurin | - | >20 µg/mL
Cc1ccc(-n2cc(-c3ccc(F)cc3)c(C(=O)O)c2C)cc1 | 40 strains | - | - | >11.91 µg/mL
CCCCCCCCn1c(-c2ccc([N+](=O)[O-])cc2)cc(C(=O)N2CCN(C)CC2)c1C | 20 strains | - | - | >200 µg/mL
Cc1ccc(-c2cn(-c3ccc(Cl)cc3)c(C)c2C(=O)O)cc1 | 40 strains | - | - | <36.5 µg/mL
O/N=C/c1cc[n+](Cc2ccc(C[n+]3ccc(/C=N/O)cc3)s2)cc1.[Cl-].[Cl-] | - | broth dilution | - | >20 µg/mL
CC(C)(C)C1CCC(CN2C3=NC[C@@H](CC4CCCCC4)N3C[C@H]2C2CCCCC2)CC1 | ATCC 10231 | - | - | 8.7 µg/mL
Cc1c(C(=O)O)c(-c2ccc(F)cc2)cn1-c1ccc(Br)cc1 | 40 strains | - | - | >16.77 µg/mL

The last 8 rows once more:

{"compound": "Cc1c(C(=O)O)c(-c2ccc(Br)cc2)cn1-c1ccc(F)cc1", "strain": "40 strains", "result": ">78.57 µg/mL"}
{"compound": "C[n+]1c2c(Cl)cccc2cc2sc3ccccc3c21", "strain": "ATCC 90028", "read by": "resazurin", "result": ">20 µg/mL"}
{"compound": "Cc1ccc(-n2cc(-c3ccc(F)cc3)c(C(=O)O)c2C)cc1", "strain": "40 strains", "result": ">11.91 µg/mL"}
{"compound": "CCCCCCCCn1c(-c2ccc([N+](=O)[O-])cc2)cc(C(=O)N2CCN(C)CC2)c1C", "strain": "20 strains", "result": ">200 µg/mL"}
{"compound": "Cc1ccc(-c2cn(-c3ccc(Cl)cc3)c(C)c2C(=O)O)cc1", "strain": "40 strains", "result": "<36.5 µg/mL"}
{"compound": "O/N=C/c1cc[n+](Cc2ccc(C[n+]3ccc(/C=N/O)cc3)s2)cc1.[Cl-].[Cl-]", "read by": "broth dilution", "result": ">20 µg/mL"}
{"compound": "CC(C)(C)C1CCC(CN2C3=NC[C@@H](CC4CCCCC4)N3C[C@H]2C2CCCCC2)CC1", "strain": "ATCC 10231", "result": "8.7 µg/mL"}
{"compound": "Cc1c(C(=O)O)c(-c2ccc(F)cc2)cn1-c1ccc(Br)cc1", "strain": "40 strains", "result": ">16.77 µg/mL"}